Measurements reported in PubChem BioAssay AID1259414 (Drosophila RNAi Screening Center, 2018).
The deposit covers about 24,000 reagents; below is a random part of those with a known target gene and a result. Of all reagents, about 1,210 (5%) got an active call. 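Inactive calls also include excluded dsRNAs with several or no targets, genes unexpressed in JW18, and well A1, regardless of score.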 Reagents against one gene are numbered here. A plus sign joins genes that one reagent is predicted to hit.

Test: 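Genome-wide screen for host control of endosymbiont load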 (primary screen)
Cells: Drosophila JW18 cells infected with Wolbachia
Reagents: long dsRNA against Drosophila genes, 0.25 µg dsRNA per well of a 384-well plate
Duration: 5 days
Treatment: cells persistently infected with Wolbachia before knock-down; no added drug
Detection: 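Imaged fluorescence in situ signal for Wolbachia 23S rRNA per DAPI-counted host cell, given as a robust z-score within each plate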
Reading the numbers: Wolbachia per cell robust z: higher = more Wolbachia per host cell than the plate typical
Active means: 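Hit when robust z is 1.5 or more, or -1.5 or less, in at least two of three replicates; excludes dsRNAs with several or no targets, genes not expressed in JW18 and well A1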

| target | reagent | Wolbachia per cell robust z, rep 1 | Wolbachia per cell robust z, rep 2 | Wolbachia per cell robust z, rep 3 | Call |
| --- | --- | --- | --- | --- | --- |
| lncRNA:CR31526 (long non-coding RNA:CR31526) | 1 | -0.469 | 0.643 | 0.595 | inactive |
| lncRNA:CR31526 (long non-coding RNA:CR31526) | 2 | -6.96 | 0.379 | -0.612 | inactive |
| lncRNA:CR31526 (long non-coding RNA:CR31526) | 3 | 0.212 | -0.262 | 0.193 | inactive |
| CG44253 + Fatp2 | 1 | -0.224 | -1.63 | -6.93 | active |
| CG44253 + Fatp2 | 2 | -0.321 | -0.334 | -0.582 | inactive |
| mRpL34 (mitochondrial ribosomal protein L34) | 1 | -0.493 | 0.212 | -0.00763 | inactive |
| Ge-1 | 1 | -1.87 | -1.64 | -0.872 | inactive |
| Ge-1 | 2 | 0.83 | 1.5 | 2.36 | inactive |
| CG30403 | 1 | 0.714 | 0.24 | 0.369 | inactive |
| Ac76E (Adenylyl cyclase 76E) | 1 | -0.786 | -0.663 | -0.516 | inactive |
| Ac76E (Adenylyl cyclase 76E) | 2 | -1.87 | 0.704 | 0.798 | inactive |
| puf (puffyeye) | 1 | -0.542 | -0.449 | -1.35 | inactive |
| tyn (trynity) | 1 | -0.347 | 0.0364 | 0.518 | inactive |
| CG7140 | 1 | 0.729 | 0.58 | 0.947 | inactive |
| MED19 (Mediator complex subunit 19) | 1 | 0.774 | 0.742 | 1.67 | inactive |
| MED19 (Mediator complex subunit 19) | 2 | -0.701 | -0.588 | -1.82 | inactive |
| MED19 (Mediator complex subunit 19) | 3 | -1.73 | -0.462 | -0.867 | inactive |
| shakB (shaking B) | 1 | 0.306 | -2.16 | 1.05 | inactive |
| shakB (shaking B) | 2 | -1.2 | -1.52 | -2.72 | inactive |
| shakB (shaking B) | 3 | 0.974 | 0.736 | 0.861 | inactive |
| shakB (shaking B) | 4 | -1.67 | -3.19 | -2.31 | inactive |
| shakB (shaking B) | 5 | -1.47 | -1.36 | 0.00055 | inactive |
| shakB (shaking B) | 6 | 0.011 | -0.702 | -2.19 | inactive |
| SerRS-m (Seryl-tRNA synthetase, mitochondrial) | 1 | -0.391 | -4.7 | 1.18 | inactive |
| CG9689 | 1 | 0.488 | 0.0906 | -1.72 | inactive |
| CG9689 | 2 | -0.102 | 0.594 | -1.9 | inactive |
| hui (hase und igel) | 1 | 0.191 | -1.21 | -4.06 | inactive |
| hui (hase und igel) | 2 | -4.29 | -9.15 | -6.44 | inactive |
